Pooled drug test results. Numbers come from NIAID ChemDB, via PubChem.

Common to all: growth or infection tests; organism: Herpes simplex virus 1; read by: cytopathic effect

Neighbouring rows are from separate reports.

smiles | cells | read-out | strain | value
CC1(C)C2CCC1(C)C(O)C2 | HeLa | EC50 | KOS | >200 µg/mL
Nc1nc(=O)n([C@@H]2O[C@H](CO)[C@@H](O)[C@@H]2F)cc1I | HEL | EC50 | KOS PMEDAP-resistant | 0.004 µg/mL
Nc1ncnc2c1ccn2[C@@H]1O[C@H](CO)C[C@H]1O | PRK | EC50 | KOS | ≥10 µg/mL
Nc1ncc2c(ncn2COC(CO)CO)n1 | HEL | EC50 | KOS | 0.12 µg/mL
Cn1c(=O)c2c(ncn2C)n(C)c1=O | HeLa | EC50 | KOS | >200 µg/mL
O=C(O)P(=O)(O)O | HEL | EC50 | KOS GCV-resistant | 51.3 µg/mL
COc1cc2c(cc1OC)[C@@]13CCN4CC5=CCO[C@H]6CC(=O)N2[C@H]1[C@H]6[C@H]5C[C@H]43 | HeLa | EC50 | KOS | >200 µg/mL
Nc1nc(N)c2ncn(CCOCP(=O)(O)O)c2n1 | HEL | EC50 | KOS PMEA-resistant | 32.7 µg/mL
CC(=O)OC1CN2CCC1CC2 | HeLa | EC50 | KOS | >400 µg/mL
Nc1ncnc2c1ccn2[C@@H]1O[C@H](CO)[C@H](O)[C@H]1O | PRK | EC50 | VMW1837 (TK-) | 0.07 µg/mL
C1N2CN3CN1CN(C2)C3 | HeLa | EC50 | KOS | >200 µg/mL
N#Cc1cn([C@@H]2O[C@H](CO)C[C@H]2O)c2ncnc(N)c12 | PRK | EC50 | KOS | ≥0.4 µg/mL
Nc1ncnc2c1ncn2CCOCP(=O)(O)O | HEL | EC50 | KOS PMEDAP-resistant | 103 µg/mL
CCOC(=O)P(=O)(O)OCCOCn1cnc2c(=O)[nH]c(N)nc21 | VERO | EC95 | L2/R | 661 µM
NC(=O)c1cn([C@@H]2O[C@H](CO)[C@@H](O)[C@H]2O)c2ncnc(N)c12 | PRK | EC50 | KOS | 0.07 µg/mL

Repeating the first 2 entries:

| smiles | cells | read-out | strain | value |
|---|---|---|---|---|
| CC1(C)C2CCC1(C)C(O)C2 | HeLa | EC50 | KOS | >200 µg/mL |
| Nc1nc(=O)n([C@@H]2O[C@H](CO)[C@@H](O)[C@@H]2F)cc1I | HEL | EC50 | KOS PMEDAP-resistant | 0.004 µg/mL |

ECn: concentration that inhibits the pathogen or its effect by n%.